Ten molecules from patent US6512006B1, “HIV protease inhibitors” (Warner-Lambert Company, priority 1999, dated 2003) can be followed below.

This data set concerns HIV infected lymphocyte derived CEM cells. The experiment in a line: Cellular Infection Assay, XTT cytopathic procedure in CEM cells (antiviral efficacy). The data set is classed as cell-based. The note with it: therapeutic index (TC50/EC50). As to the method:
Compounds were tested in lymphocyte derived CEM cells using the XTT cytopathic procedures and were performed at Southern Research Institute (Buckheit, et al., Antiviral Res., 1993;21:247; see also Weislow, et al., J. Nat. Cancer Inst., 1989;81:577). Compound concentrations were 0.32, 1, 3.2, 10, 32, and 100 μM. The EC50 represents the concentration of agent, which reduces HIV cytopathic effects 50% relative to untreated control. Cellular toxicity of the agents are estimated from the TC50 which represents the concentration of the agent which inhibits 50% of the viability of uninfected cells.
EC50 indicates the concentration of the drug which provide 50% protection against HIV.
In general terms: Tetrazolium assays rely on reduction of a dye to a coloured formazan, in cell work by metabolically active cells.

In turn, `CCCN(C1=C(O)CC(CCc2ccccc2)(C(C)C)OC1=O)c1cccc(NS(=O)(=O)c2ccc(C(F)(F)F)cn2)c1` (stereo not shown) [Example 1, 5-Trifluoromethyl-pyridine-2-sulfonic acid {3-[(4-hydroxy-6-isopropyl-2-oxo-6-phenethyl-5,6-dihydro-2H-pyran-3-yl)-propyl-amino]-phenyl}-amide] had a TI of 90.

The molecule `CCCN(C1=C(O)CC(CCc2ccc(O)cc2)(C(C)C)OC1=O)c1cccc(NS(=O)(=O)c2ccc(C(F)(F)F)cn2)c1` (stereo not shown) [Example 2, 5-Trifluoromethyl-pyridine-2-sulfonic acid [3-({4-hydroxy-6-[2-(4-hydroxy-phenyl)-ethyl]-6-isopropyl-2-oxo-5,6-dihydro-2H-pyran-3-yl}-propyl-amino)-phenyl]-amide] returned a TI of 71.

`CCN(C1=C(O)CC(CCc2ccccc2)(C(C)C)OC1=O)c1cccc(NS(=O)(=O)c2ccc(C(F)(F)F)cn2)c1` (stereo not shown) [Example 3, 5-Trifluoromethyl-pyridine-2-sulfonic acid {3-[ethyl-(4-hydroxy-6-isopropyl-2-oxo-6-phenethyl-5,6-dihydro-2H-pyran-3-yl)-amino]-phenyl}-amide]: the TI is listed as 60.

`CCCN(C1=C(O)CC(CCc2ccc(O)cc2)(C(C)C)OC1=O)c1cccc(NS(=O)(=O)c2ccc(C(F)(F)F)cn2)c1` (stereo not shown) [Example 4, 5-Trifluoromethyl-pyridine-2-sulfonic acid [3-({4-hydroxy-6-[2-(4-hydroxy-phenyl)-ethyl]-6-isopropyl-2-oxo-5,6-dihydro-2H-pyran-3-yl}-propyl-amino)-phenyl]-amide] displayed a TI of 76.4.

The molecule `CCCC1(CCc2ccc(O)cc2)CC(O)=C(N(CC)c2cccc(NS(=O)(=O)c3ccc(C(F)(F)F)cn3)c2)C(=O)O1` (stereo not shown) [Example 5, 5-Trifluoromethyl-pyridine-2-sulfonic acid [3-(ethyl-{4-hydroxy-6-[2-(4-hydroxy-phenyl)-ethyl]-2-oxo-6-propyl-5,6-dihydro-2H-pyran-3-yl}-amino)-phenyl]-amide] yielded a TI of 86.9.

Take `CCN(C1=C(O)CC(CCc2ccc(O)cc2)(C(C)C)OC1=O)c1cccc(NS(=O)(=O)c2ccc(C(F)(F)F)cn2)c1` (stereo not shown) [Example 6, 5-Trifluoromethyl-pyridine-2-sulfonic acid [3-(ethyl-{4-hydroxy-6-[2-(4-hydroxy-phenyl)-ethyl]-6-isopropyl-2-oxo-5,6-dihydro-2H-pyran-3-yl}-amino)-phenyl]-amide]: the TI was found to be 102.3.

As for `CCCN(C1=C(O)CC(CCc2ccc(O)cc2)(C(C)C)OC1=O)c1ccccc1` (stereo not shown) [Example 7, 4-Hydroxy-6-[2-(4-hydroxy-phenyl)-ethyl]-6-isopropyl-3-(phenyl-propyl-amino)-5,6-dihydro-pyran-2-one], the TI is recorded as 153.8.

In turn, `CCCN(C1=C(O)CC(CCc2cccc(O)c2)(C2CCCC2)OC1=O)c1ccccc1` (stereo not shown) [Example 8, 6-Cyclopentyl-4-hydroxy-6-[2-(3-hydroxy-phenyl)-ethyl]-3-(phenyl-propyl-amino)-5,6-dihydro-pyran-2-one] showed a TI of 51.5.

In turn, `CCCCN(C1=C(O)CC(CCc2ccc(O)cc2)(C(C)C)OC1=O)c1ccccc1` (stereo not shown) [Example 13, 3-(Butyl-phenyl-amino)-4-hydroxy-6-[2-(4-hydroxy-phenyl)-ethyl]-6-isopropyl-5,6-dihydro-pyran-2-one] had a TI of 104.

`CC(C)C1(CCc2ccc(O)cc2)CC(O)=C(N(CCC#N)c2ccccc2)C(=O)O1` (stereo not shown) [Example 21, 3-({4-Hydroxy-6-[2-(4-hydroxy-phenyl)-ethyl]-6-isopropyl-2-oxo-5,6-dihydro-2H-pyran-3-yl}-phenyl-amino)-propionitrile] came in with a TI of 118.5.
